Measured values from several laboratories, pooled; numbers as filed in NIAID ChemDB.

Shared fields: tests in culture; organism: Mycobacterium avium complex; measure: MIC

Lines come from different laboratories, so protocols vary.

smiles | strain | result
CC[C@H]1OC(=O)[C@H](C)[C@@H](OC2C[C@@](C)(OC)[C@@H](O)[C@H](C)O2)[C@H](C)[C@@H](O[C@@H]2O[C@H](C)C[C@H](N(C)C)[C@H]2O)C(C)(O)C[C@@H](C)/C(=N\OCCSc2ccccc2)[C@H](C)[C@@H](O)[C@]1(C)O | 20092 (clarithromycin-resistant) | 25 µg/mL
CCCCCCO/N=C1\[C@H](C)CC(C)(O)[C@H](O[C@@H]2O[C@H](C)C[C@H](N(C)C)[C@H]2O)[C@@H](C)[C@H](OC2C[C@@](C)(OC)[C@@H](O)[C@H](C)O2)[C@@H](C)C(=O)O[C@H](CC)[C@@](C)(O)[C@H](O)[C@H]1C | 20092 | 25 µg/mL
COc1ccc(C)cc1NCc1cnc2nc(N)nc(N)c2c1C | NJ211 | ≤0.13 µg/mL
Clc1cccc(Sc2nc(Cl)nc3nc[nH]c23)c1 | NJ211 | >12.8 µg/mL
CCCCO/N=C1\[C@H](C)CC(C)(O)[C@H](O[C@@H]2O[C@H](C)C[C@H](N(C)C)[C@H]2O)[C@@H](C)[C@H](OC2C[C@@](C)(OC)[C@@H](O)[C@H](C)O2)[C@@H](C)C(=O)O[C@H](CC)[C@@](C)(O)[C@H](O)[C@H]1C | 20092 | >50 µg/mL
CC[C@H]1OC(=O)[C@H](C)[C@@H](O[C@H]2C[C@@](C)(OC)[C@@H](OC(C)=O)[C@H](C)O2)[C@H](C)[C@@H](O[C@@H]2O[C@H](C)C[C@H](N(C)C)[C@H]2O)C(C)(O)C[C@@H](C)/C(=N\OCCCCc2ccccc2)[C@H](C)[C@@H](O)[C@]1(C)O | 20092 (clarithromycin-resistant) | 1.56 µg/mL
COc1ccc(NCc2cnc3nc(N)nc(N)c3c2C)cc1F | NJ211 | ≤0.13 µg/mL
NNC(=O)c1ccncc1 | N-319 (HIV-) | 2 µg/mL
CCc1nc(N)nc(N)c1-c1ccc(Cl)cc1 | DW11 | 16 µg/mL
Clc1nc(Sc2ccccc2Cl)c2[nH]cnc2n1 | NJ211 | >12.8 µg/mL
CC[C@H]1OC(=O)[C@H](C)[C@@H](O[C@H]2C[C@@](C)(OC)[C@@H](OC(C)=O)[C@H](C)O2)[C@H](C)[C@@H](O[C@@H]2O[C@H](C)C[C@H](N(C)C)[C@H]2O)C(C)(O)C[C@@H](C)/C(=N\OCCC2CCCCC2)[C@H](C)[C@@H](O)[C@]1(C)O | 20096 (clarithromycin-resistant) | 3.13 µg/mL
CO[C@H]1/C=C/O[C@@]2(C)Oc3c(C)c(O)c4c(O)c(c5c(c4c3C2=O)NC2(CCN(CC(C)C)CC2)N=5)=NC(=O)/C(C)=C\C=C\[C@H](C)[C@H](O)[C@@H](C)[C@@H](O)[C@@H](C)[C@H](OC(C)=O)[C@@H]1C | N-979 (HIV+) | 0.2 µg/mL
CC[C@H]1OC(=O)[C@H](C)[C@@H](OC2C[C@@](C)(OC)[C@@H](O)[C@H](C)O2)[C@H](C)[C@@H](O[C@@H]2O[C@H](C)C[C@H](N(C)C)[C@H]2O)C(C)(O)C[C@@H](C)/C(=N\OCC2CCCCC2)[C@H](C)[C@@H](O)[C@]1(C)O | 20039 | 1.56 µg/mL
C/C(=N\NC(N)=S)c1cccnc1 | 109 | 0.5 µg/mL
CC[C@H]1OC(=O)[C@H](C)[C@@H](OC2C[C@@](C)(OC)[C@@H](O)[C@H](C)O2)[C@H](C)[C@@H](O[C@@H]2O[C@H](C)C[C@H](N(C)C)[C@H]2O)C(C)(O)C[C@@H](C)/C(=N\OCc2ccccc2)[C@H](C)[C@@H](O)[C@]1(C)O | 20092 | >50 µg/mL
Cc1ccccc1Sc1ncccn1 | NJ211 | >12.8 µg/mL
Cc1ccc(Cl)cc1NCc1cnc2nc(N)nc(N)c2c1C | NJ168 | ≤0.13 µg/mL
Cc1ccc(Sc2nc(Cl)nc3nc[nH]c23)cc1 | NJ211 | >12.8 µg/mL
CC[C@H]1OC(=O)[C@H](C)[C@@H](O[C@H]2C[C@@](C)(OC)[C@@H](O)[C@H](C)O2)[C@H](C)[C@@H](O[C@@H]2O[C@H](C)C[C@H](N(C)C)[C@H]2O)[C@](C)(O)C[C@@H](C)/C(=N\OC)[C@H](C)[C@@H](O)[C@]1(C)O | 20096 | >50 µg/mL
Cc1ccc(NCc2cnc3nc(N)nc(N)c3c2C)cc1Cl.O | NJ168 | ≤0.13 µg/mL
C[C@@H]1CN(c2c(F)c(N)c3c(=O)c(C(=O)O)cn(C4CC4)c3c2F)C[C@H](C)N1 | N-316 (HIV-) | 1 µg/mL
COc1cc(-c2ccccc2)ccc1NCc1cnc2nc(N)nc(N)c2c1C | NJ211 | ≤0.13 µg/mL
CC[C@H]1OC(=O)[C@H](C)[C@@H](OC2C[C@@](C)(OC)[C@@H](O)[C@H](C)O2)[C@H](C)[C@@H](O[C@@H]2O[C@H](C)C[C@H](N(C)C)[C@H]2O)C(C)(O)C[C@@H](C)/C(=N\OCCCC2CCCCC2)[C@H](C)[C@@H](O)[C@]1(C)O | 20096 | 6.25 µg/mL
COc1cccc(Sc2nc(Cl)nc3nc[nH]c23)c1 | NJ211 | >12.8 µg/mL
C[C@@H]1CN(c2c(F)c(N)c3c(=O)c(C(=O)O)cn(C4CC4)c3c2F)C[C@H](C)N1 | Isolate 90-0779 | 0.5 µg/mL
NNC(=O)c1ccncc1 | E12460 | 1.25–1.6 µg/mL
COc1cc(NCc2cnc3nc(N)nc(N)c3c2C)cc(OC)c1OC | NJ3404 | ≤0.13 µg/mL
CC[C@H]1OC(=O)[C@H](C)[C@@H](OC2C[C@@](C)(OC)[C@@H](O)[C@H](C)O2)[C@H](C)[C@@H](O[C@@H]2O[C@H](C)C[C@H](N(C)C)[C@H]2O)C(C)(O)C[C@@H](C)/C(=N\OCCN(C)c2ccccc2)[C@H](C)[C@@H](O)[C@]1(C)O | 20092 | 25 µg/mL
CC[C@H]1OC(=O)[C@H](C)[C@@H](OC(=O)Cc2ccc[nH]2)[C@H](C)[C@@H](O[C@@H]2O[C@H](C)C[C@H](N(C)C)[C@H]2O)C(C)(O)C[C@@H](C)/C(=N\OCCCOc2ccccc2)[C@H](C)[C@@H](O)[C@]1(C)O | 20039 (clarithromycin-susceptible) | 1.56 µg/mL
CC1(C)N=C(N)N=C(N)N1OCCCOc1cc(Cl)c(Cl)cc1Cl | F8074 | 2 µg/mL
CCCCCCCCCCNNC(=O)O[C@H]1[C@H](O[C@@H]2[C@@H](C)[C@H](O[C@H]3C[C@@](C)(OC)[C@@H](OC(C)=O)[C@H](C)O3)[C@@H](C)C(=O)O[C@H](CC)[C@@](C)(O)[C@H](O)[C@@H](C)/C(=N/OCCCC3CCCCC3)[C@H](C)CC2(C)O)O[C@H](C)C[C@@H]1N(C)C | 20092 (clarithromycin-resistant) | >50 µg/mL
CC1(C)N=C(N)N=C(N)N1OCCCOc1cc(Cl)c(Cl)cc1Cl | DW22 | 4 µg/mL
CC[C@H]1OC(=O)[C@H](C)[C@@H](O[C@H]2C[C@@](C)(OC)[C@@H](OC(C)=O)[C@H](C)O2)[C@H](C)[C@@H](O[C@@H]2O[C@H](C)C[C@H](N(C)C)[C@H]2OC(=O)NNCCc2ccccc2)C(C)(O)C[C@@H](C)/C(=N\OCCCC2CCCCC2)[C@H](C)[C@@H](O)[C@]1(C)O | 20039 (clarithromycin-susceptible) | 1.56 µg/mL
COCc1c(CNc2cc(OC)ccc2OC)cnc2nc(N)nc(N)c12 | NJ3404 | >13 µg/mL
CC[C@H]1OC(=O)[C@H](C)[C@@H](O[C@H]2C[C@@](C)(OC)[C@@H](OC(C)=O)[C@H](C)O2)[C@H](C)[C@@H](O[C@@H]2O[C@H](C)C[C@H](N(C)C)[C@H]2OC(=O)NNCCCCCc2ccccc2)C(C)(O)C[C@@H](C)/C(=N\OCCCC2CCCCC2)[C@H](C)[C@@H](O)[C@]1(C)O | 20092 (clarithromycin-resistant) | 6.25 µg/mL
CC[C@H]1OC(=O)[C@H](C)[C@@H](OC2C[C@@](C)(OC)[C@@H](O)[C@H](C)O2)[C@H](C)[C@@H](O[C@@H]2O[C@H](C)C[C@H](N(C)C)[C@H]2O)C(C)(OC)C[C@@H](C)/C(=N\OCCCOc2ccccc2)[C@H](C)[C@@H](O)[C@]1(C)O | 20092 | 12.5 µg/mL
Cc1ccc(C)c(NCc2cnc3nc(N)nc(N)c3c2C)c1 | NJ3404 | ≤0.13 µg/mL
CO[C@H]1/C=C/O[C@@]2(C)Oc3c(C)c(O)c4c(=O)c(c5oc6cc(N7CCN(CC(C)C)CC7)cc(=O)c6nc5c4c3=C2O)NC(=O)/C(C)=C\C=C\[C@H](C)[C@H](O)[C@@H](C)[C@@H](O)[C@@H](C)[C@H](OC(C)=O)[C@@H]1C | N-980 (HIV+) | 0.0313 µg/mL
CC[C@H]1OC(=O)[C@H](C)[C@@H](OC2C[C@@](C)(OC)[C@@H](OC(=O)CC3CCCCC3)[C@H](C)O2)[C@H](C)[C@@H](O[C@@H]2O[C@H](C)C[C@H](N(C)C)[C@H]2O)C(C)(O)C[C@@H](C)/C(=N\OCCCOc2ccccc2)[C@H](C)[C@@H](O)[C@]1(C)O | 20039 (clarithromycin-susceptible) | 1.56 µg/mL

5 of the rows above, restated:

smiles | strain | result
CC[C@H]1OC(=O)[C@H](C)[C@@H](O[C@H]2C[C@@](C)(OC)[C@@H](O)[C@H](C)O2)[C@H](C)[C@@H](O[C@@H]2O[C@H](C)C[C@H](N(C)C)[C@H]2O)[C@](C)(O)C[C@@H](C)/C(=N\OC)[C@H](C)[C@@H](O)[C@]1(C)O | 20096 | >50 µg/mL
NNC(=O)c1ccncc1 | N-319 (HIV-) | 2 µg/mL
CC[C@H]1OC(=O)[C@H](C)[C@@H](OC2C[C@@](C)(OC)[C@@H](O)[C@H](C)O2)[C@H](C)[C@@H](O[C@@H]2O[C@H](C)C[C@H](N(C)C)[C@H]2O)C(C)(O)C[C@@H](C)/C(=N\OCc2ccccc2)[C@H](C)[C@@H](O)[C@]1(C)O | 20092 | >50 µg/mL
Cc1ccc(NCc2cnc3nc(N)nc(N)c3c2C)cc1Cl.O | NJ168 | ≤0.13 µg/mL
NNC(=O)c1ccncc1 | E12460 | 1.25–1.6 µg/mL

Two numbers with a dash give a range or band.